The text below walks through data of ChEMBL document CHEMBL5150021, “Identification of 5-(Aryl/Heteroaryl)amino-4-quinolones as Potent Membrane-Disrupting Agents to Combat Antibiotic-Resistant Gram-Positive Bacteria” (J Med Chem, 2022).

The test deals with Staphylococcus aureus. Description: Induction of drug resistance in Staphylococcus aureus FPR3757 assessed as fold increase in MIC incubated for 65 days relative to control. The format is functional. As to conditions: time 65.0 day.

Turning to `FC(F)(F)c1ccc(Nc2cc(C(F)(F)F)nc3cc(C(F)(F)F)ccc23)nc1`, the fold change (FC) amounted to 2.
